# Calls of active or inactive are those of the source. The rule behind the calls is not given here.
# What was measured:
# Rattus norvegicus [1] = species: Rattus norvegicus; test: Induction of mitochondrial membrane potential loss in isolated Wistar rat mitochondria assessed as decline phase rate constant at 200 uM using pyruvate as substrate up to 3 hrs by microcalorimetry (reference value: -24.13 to -20.47 10^-3/min)
# Rattus norvegicus [2] = species: Rattus norvegicus; test: Induction of mitochondrial membrane potential loss in isolated Wistar rat mitochondria assessed as stationary increase phase rate constant at 50 uM using pyruvate as substrate up to 3 hrs by microcalorimetry; assay type: functional
# NB-4 [3] = test: Induction of apoptosis in human NB4 cells assessed as early apoptotic cells at 1.2 uM after 24 hrs by Annexin V-FITC/propidium iodide staining based flow cytometry (reference value: 5%)
# NB-4 [4] = test: Induction of ROS generation in human NB4 cells up to 2.4 uM up to 24 hrs by DCFH-DA staining based flow cytometry
# Rattus norvegicus [5] = species: Rattus norvegicus; test: Induction of mitochondrial membrane potential loss in isolated Wistar rat mitochondria assessed as maximum power output time at 100 uM using pyruvate as substrate up to 3 hrs by microcalorimetry; assay type: functional
# Rattus norvegicus [6] = species: Rattus norvegicus; test: Induction of mitochondrial membrane potential loss in isolated Wistar rat mitochondria assessed as total heat output at 100 uM using pyruvate as substrate up to 3 hrs by microcalorimetry; assay type: functional
# NB-4 [7] = test: Induction of mitochondrial membrane potential loss in human NB4 cells at 1.2 uM after 3 hrs by JC1 staining based flow cytometry (reference value: 27.7%)
# NB-4 [8] = test: Induction of ROS generation in human NB4 cells up to 2.4 uM up to 24 hrs by DHE staining based flow cytometry
# NB-4 [9] = test: Induction of decrease in intracellular total thiols level in human NB4 cells up to 2.4 uM up to 24 hrs
# Rattus norvegicus [10] = species: Rattus norvegicus; test: Induction of mitochondrial membrane potential loss in isolated Wistar rat mitochondria assessed as stationary increase phase rate constant at 100 uM using pyruvate as substrate up to 3 hrs by microcalorimetry; assay type: functional
# NB-4 [11] = test: Induction of apoptosis in human NB4 cells assessed as live cells at 1.2 uM after 24 hrs by Annexin V-FITC/propidium iodide staining based flow cytometry (reference value: 92%)
# NB-4 [12] = test: Cytotoxicity against human NB4 cells assessed as reduction in cell viability up to 3.6 uM up to 8 hrs by MTT assay
# NB-4 [13] = test: Induction of apoptosis in human NB4 cells assessed as decrease in cell size at 1.2 to 2.4 uM after 24 hrs by Hoechst 33342/propidium iodide staining based confocal microscopic method
# NB-4 [14] = test: Cytotoxicity against human NB4 cells assessed as reduction in cell viability at 1.5 to 2 uM after 24 hrs in presence of DMP by trypan blue assay
# Rattus norvegicus [15] = species: Rattus norvegicus; test: Induction of mitochondrial membrane potential loss in isolated Wistar rat mitochondria assessed as maximum power output time at 200 uM using pyruvate as substrate up to 3 hrs by microcalorimetry (reference value: 45.07 to 49.89 hrs)
# NB-4 [16] = test: Induction of apoptosis in human NB4 cells assessed as necrotic cells at 1.2 uM after 24 hrs in presence of Nec-1 by Annexin V-FITC/propidium iodide staining based flow cytometry (reference value: 0.1%)
# Rattus norvegicus [17] = species: Rattus norvegicus; test: Induction of inner mitochondrial membrane permeabilization in isolated Wistar rat mitochondria assessed as H+ permeabilization at 50 to 200 uM measured for 10 to 30 mins
# NB-4 [18] = test: Cytotoxicity against human NB4 cells assessed as reduction in cell viability at 1.5 to 2 uM after 24 hrs in presence of DMSA by trypan blue assay
# Rattus norvegicus [19] = species: Rattus norvegicus; test: Induction of mitochondrial membrane potential loss in isolated Wistar rat mitochondria assessed as activity recovery phase rate constant at 100 uM using pyruvate as substrate up to 3 hrs by microcalorimetry; assay type: functional
# Rattus norvegicus [20] = species: Rattus norvegicus; test: Induction of mitochondrial membrane potential loss in isolated Wistar rat mitochondria assessed as decline phase rate constant at 100 uM using pyruvate as substrate up to 3 hrs by microcalorimetry; assay type: functional
# NB-4 [21] = test: Induction of apoptosis in human NB4 cells assessed as nuclear condensation at 1.2 to 2.4 uM after 24 hrs by Hoechst 33342/propidium iodide staining based confocal microscopic method
# NB-4 [22] = test: Induction of mitochondrial membrane potential loss in human NB4 cells at 1.2 uM after 6 hrs by JC1 staining based flow cytometry (reference value: 27.7%)
# NB-4 [23] = test: Cytotoxicity against human NB4 cells assessed as reduction in cell viability at 2.4 uM after 24 hrs in presence of PDHC-E2 co-enzyme LA by trypan blue assay
# NB-4 [24] = test: Induction of mitochondrial membrane potential loss in human NB4 cells at 0.6 to 3.6 uM after 24 hrs by JC-1 staining based confocal microscopic method
# Rattus norvegicus [25] = species: Rattus norvegicus; test: Induction of mitochondrial membrane potential loss in isolated Wistar rat mitochondria assessed as decline phase rate constant at 50 uM using pyruvate as substrate up to 3 hrs by microcalorimetry; assay type: functional
# Rattus norvegicus [26] = species: Rattus norvegicus; test: Induction of mitochondrial membrane potential loss in isolated Wistar rat mitochondria assessed as total heat output at 50 uM using pyruvate as substrate up to 3 hrs by microcalorimetry; assay type: functional
# Rattus norvegicus [27] = species: Rattus norvegicus; test: Induction of mitochondrial membrane potential loss in isolated Wistar rat mitochondria assessed as stationary increase phase rate constant at 200 uM using pyruvate as substrate up to 3 hrs by microcalorimetry (reference value: 1 to 1.18 10^-3/min)
# Rattus norvegicus [28] = species: Rattus norvegicus; test: Induction of inner mitochondrial membrane permeabilization in isolated Wistar rat mitochondria assessed as K+ permeabilization at 50 to 200 uM measured for 10 to 30 mins
# Rattus norvegicus [29] = species: Rattus norvegicus; test: Induction of mitochondrial membrane potential loss in isolated Wistar rat mitochondria assessed as maximum power output time at 50 uM using pyruvate as substrate up to 3 hrs by microcalorimetry; assay type: functional
# Rattus norvegicus [30] = species: Rattus norvegicus; test: Induction of mitochondrial membrane potential loss in isolated Wistar rat mitochondria assessed as maximum power output at 200 uM using pyruvate as substrate up to 3 hrs by microcalorimetry (reference value: 141.64 to 153.92 W)
# Rattus norvegicus [31] = species: Rattus norvegicus; test: Induction of mitochondrial membrane potential loss in isolated Wistar rat mitochondria assessed as total heat output at 200 uM using pyruvate as substrate up to 3 hrs by microcalorimetry (reference value: 10.32 to 10.36 J)
# NB-4 [32] = test: Induction of apoptosis in human NB4 cells assessed as necrotic cells at 1.2 uM after 24 hrs by Annexin V-FITC/propidium iodide staining based flow cytometry (reference value: 0.1%)
# NB-4 [33] = test: Induction of apoptosis in human NB4 cells assessed as late apoptotic cells at 1.2 uM after 24 hrs by Annexin V-FITC/propidium iodide staining based flow cytometry (reference value: 2.9%)
# Rattus norvegicus [34] = species: Rattus norvegicus; test: Induction of mitochondrial membrane potential loss in isolated Wistar rat mitochondria assessed as activity recovery phase rate constant at 50 uM using pyruvate as substrate up to 3 hrs by microcalorimetry; assay type: functional
# NB-4 [35] = test: Induction of apoptosis in human NB4 cells assessed as late apoptotic cells at 1.2 uM after 24 hrs in presence of Nec-1 by Annexin V-FITC/propidium iodide staining based flow cytometry (reference value: 2.9%)
# NB-4 [36] = test: Induction of apoptosis in human NB4 cells assessed as live cells at 1.2 uM after 24 hrs in presence of Nec-1 by Annexin V-FITC/propidium iodide staining based flow cytometry (reference value: 92%)
# NB-4 [37] = test: Cytotoxicity against human NB4 cells assessed as reduction in cell viability at 1.5 to 2 uM after 24 hrs in presence of DTT by trypan blue assay
# Rattus norvegicus [38] = species: Rattus norvegicus; test: Induction of mitochondrial membrane potential loss in isolated Wistar rat mitochondria assessed as activity recovery phase rate constant at 200 uM using pyruvate as substrate up to 3 hrs by microcalorimetry (reference value: 5.15 to 7.33 10^-3/min)
# NB-4 [39] = test: Induction of mitochondrial membrane potential loss in human NB4 cells at 1.2 uM after 1 hr by JC1 staining based flow cytometry (reference value: 27.7%)
# Rattus norvegicus [40] = species: Rattus norvegicus; test: Inhibition of mitochondrial respiration in isolated Wistar rat mitochondria assessed as decrease in succinate/ADP-stimulated respiratory control ratio up to 100 uM by Clark oxygen electrode method
compound,measurement,setting,value
Nc1ccc([As]2SCCCS2)cc1,K,Rattus norvegicus [1],-16.5 ×10⁻³ /min
same,K,Rattus norvegicus [2],0.19 ×10⁻³ /min
same,Activity,NB-4 [3],12.4%
same,Activity,NB-4 [4],Active
same,TIME,Rattus norvegicus [5],73.2 h
same,Activity,Rattus norvegicus [6],12.2 J
same,Activity,NB-4 [7],21.5%
same,Activity,NB-4 [8],Active
same,Activity,NB-4 [9],Active
same,K,Rattus norvegicus [10],0.66 ×10⁻³ /min
same,Activity,NB-4 [11],64.9%
same,Activity,NB-4 [12],inactive
same,Activity,NB-4 [13],Active
same,Activity,NB-4 [14],inactive
same,TIME,Rattus norvegicus [15],86.4 h
same,Activity,NB-4 [16],1%
same,Activity,Rattus norvegicus [17],inactive
same,Activity,NB-4 [18],inactive
same,K,Rattus norvegicus [19],3.08 ×10⁻³ /min
same,K,Rattus norvegicus [20],-16.2 ×10⁻³ /min
same,Activity,NB-4 [21],Active
same,Activity,NB-4 [22],23.1%
same,Activity,NB-4 [23],inactive
same,Activity,NB-4 [24],Active
same,K,Rattus norvegicus [25],-21.5 ×10⁻³ /min
same,Activity,Rattus norvegicus [26],11.6 J
same,K,Rattus norvegicus [27],0.62 ×10⁻³ /min
same,Activity,Rattus norvegicus [28],inactive
same,TIME,Rattus norvegicus [29],65.2 h
same,Activity,Rattus norvegicus [30],94.7 W
same,Activity,Rattus norvegicus [31],11.4 J
same,Activity,NB-4 [32],1%
same,Activity,NB-4 [33],21.7%
same,K,Rattus norvegicus [34],4.07 ×10⁻³ /min
same,Activity,NB-4 [35],28.7%
same,Activity,NB-4 [36],58.2%
same,Activity,NB-4 [37],inactive
same,K,Rattus norvegicus [38],4.29 ×10⁻³ /min
same,Activity,NB-4 [39],20.9%
same,inhibition,Rattus norvegicus [40],Active

# Reference: ChEMBL document CHEMBL4330144, “A mitochondria-targeted organic arsenical accelerates mitochondrial metabolic disorder and function injury” (Bioorg Med Chem, 2019)
